Holding throughout (assay): purified protein
Common to all, as to details: pH 7.5; 25.0 °C

One data set deals with CC(=O)O.
The test system of data set [1] is Nc1ncnc2c1ncn2[C@@H]1O[C@H](COP(=O)(O)OP(=O)(O)OP(=O)(O)O)[C@@H](O)[C@H]1O.
For data set [2], the system named is CC(C)(COP(=O)(O)OP(=O)(O)OC[C@H]1O[C@@H](n2cnc3c(N)ncnc32)[C@H](O)[C@@H]1OP(=O)(O)O)[C@@H](O)C(=O)NCCC(=O)NCCS.

As a reminder, the Km is the substrate concentration at which the rate is half of its maximum. Take “MtACS (Mycobacterium tuberculosis acetyl-CoA synthetase) (Mycobacterium tuberculosis H37Rv)”: the Km in the data set with CC(=O)O is 55 ± 8 µM; in data set [1] it was 79 ± 7 µM; in data set [2] it was 125 ± 5 µM.

For the origin of these results see PMC4066452 (Archives of biochemistry and biophysics, 2014).
